Anti-infective test results gathered from many reports (values: NIAID ChemDB through PubChem).

Shared fields: whole-cell or culture tests; organism: HIV-1

Blank or dashed fields: not listed here. a–b is a range or a potency band. ECn is the concentration giving n% inhibition of infection, replication or growth. Neighbouring rows are from separate reports.

| structure | strain or isolate | read-out | read by | setting | changes | cells | value |
|---|---|---|---|---|---|---|---|
| C=CCN(C(=O)[C@H](Cc1cc(F)cc(F)c1)NC(=O)c1ccncc1C(=O)N[C@@H](Cc1cc(F)cc(F)c1)C(=O)N(CC=C)c1ccc(OC)cc1)c1ccc(OC)cc1 | NL4-3 | EC50 | luciferase |  |  | MT-2 | 3.92 µM |
| CC(=O)Nc1ccc(F)c2c(C(=O)C(=O)N3CCC(=C(C#N)c4ccncc4)CC3)c[nH]c12 |  | EC50 | luciferase / reporter gene |  |  | HeLa | <1 µM |
| Nc1ccn([C@H]2CC[C@@H](CO)O2)c(=O)n1 | NL4-3 | EC50 | β-galactosidase |  | S241F |  | 0.42 µM |
| CCc1c(Cc2cc(C)cc(C)c2)n(COCC#Cc2ccc(NC(=O)C(F)(F)F)cc2)c(=O)[nH]c1=O | IIIB | EC50 | MTT |  | EFV-resistant (K103R V179D P225H) | MT-4 | 9 µM |
| CCC(C)[C@@H](C(=O)N[C@@H](Cc1ccccc1)[C@H](O)CN(CC(C)C)S(=O)(=O)c1ccc(/C=N/O)cc1)N1CCN(Cc2cccnc2C)C1=O |  | EC50 | cytopathic effect / MTT |  |  | MT-4 | 0.002 µM |
| COc1cnc(-n2cncn2)c2[nH]cc(C(=O)C(=O)N3CCC(=C(c4ccccc4)c4nnc(C)o4)CC3)c12 |  | EC50 | luciferase |  |  | HeLa | <1 µM |
| O=C1Nc2ccc(Cl)cc2C(OCCC2CC2)(C(F)(F)F)O1 |  | EC50 |  |  |  |  | <0.00804 µM |
| COc1ccc(N(C)C(=O)[C@H](Cc2ccccc2)NC(=O)CCCCC(=O)N[C@@H](Cc2ccccc2)C(=O)N(C)c2ccc(OC)cc2)cc1 | NL4-3 | EC50 | luciferase |  |  | MT-2 | 1.16 µM |
| COc1ccc(F)c2c(C(=O)C(=O)N3CCN(C(=O)c4cccc(N)c4)C[C@H]3C)c[nH]c12 |  | EC50 | luciferase |  |  | HeLa + HELA CD4+/CCR5 | <10 µM |
| CCC1=C(C(=O)OCC2CCCCC2)[C@H](c2ccc(OC(=O)c3ccccc3)c(Cl)c2)NC(=O)N1 |  | EC50 | p24 / ELISA |  |  | CEM | ≤1 µM |
| COc1cnc(-n2cnc(C)n2)c2[nH]cc(C(=O)C(=O)N3CCC(=C(c4ccccc4)c4nnc(C5CC5)o4)CC3)c12 |  | EC50 | luciferase |  |  | HeLa | <1 µM |
| CCc1c(Cc2cc(C)cc(C)c2)n(COCC#Cc2ccc([N+](=O)[O-])cc2)c(=O)[nH]c1=O | IIIB | EC50 | MTT |  | WT | MT-4 | 0.03 µM |
| O=C(O)c1cc(-n2cccc2)ccc1Cl | 92US657 R5 CLADE B | EC50 | p24 |  |  | PBMC + MT-2 | 29.73 µM |
| CCC(C)[C@@H](C(=O)N[C@@H](Cc1ccccc1)[C@H](O)CN(CC(C)C)S(=O)(=O)c1ccc(/C=N/O)cc1)N1CCN(Cc2cccnc2)C1=O |  | EC50 | cytopathic effect / MTT | 50% human serum |  | MT-4 | 0.029 µM |
| CCC1=C(C(=O)OCC2CCCCC2)C(c2cc(Cl)c(NC(=O)OC(C)(C)C)c(Cl)c2)NC(=O)N1 |  | EC50 | p24 / ELISA |  |  | CEM | ≤1 µM |
| O=C1Nc2ccc(Cl)cc2C(C#Cc2cccnc2)(C(F)(F)F)O1 |  | EC90 |  |  | RT-K103N |  | 1.11 µM |
| CCOC(=O)c1ccc(C2NC(=O)NC(CC)=C2C(=O)OCC2CCCCC2)cc1 |  | EC50 | p24 / ELISA |  |  | CEM | >5 µM |
| COc1cnc(-n2cnc(C)n2)c2[nH]cc(C(=O)C(=O)N3CCC(=C(c4ccccc4)c4cn(C)cn4)CC3)c12 |  | EC50 | luciferase |  |  | HeLa | <1 µM |
| O=C1Nc2ccc(F)cc2C(OCC=C(Cl)Cl)(C(F)(F)F)O1 |  | EC50 |  |  |  |  | <0.01194 µM |
| CC(=O)Oc1ccc(C(=O)N2CCN(C(=O)C(=O)c3c[nH]c4cccc(Cl)c34)CC2)cc1 |  | EC50 | luciferase |  |  | HeLa + HELA CD4+/CCR5 | <10 µM |
| CCC1=C(c2ncc(C3CCCCC3)o2)C(c2cccc(O)c2)NC(=O)N1 |  | EC50 | p24 / ELISA |  |  | CEM | >5 µM |
| CSc1ccc(S)c(C(=O)N2CCN(C(=O)C(=O)c3c[nH]c4cccc(F)c34)CC2)c1 |  | EC50 | luciferase |  |  | HeLa + HELA CD4+/CCR5 | <10 µM |
| CC(C)CN(C[C@@H](O)[C@H](Cc1ccccc1)NC(=O)[C@H](C(C)C)N1CC(=O)N(Cc2ccccc2)C1=O)S(=O)(=O)c1ccc(/C=N/O)cc1 |  | EC50 | cytopathic effect / MTT |  |  | MT-4 | 0.001 µM |
| COc1cnc(-c2cnccn2)c2[nH]cc(C(=O)C(=O)N3CCC(=C(c4ccccc4)c4ccc(F)cc4)CC3)c12 |  | EC50 | luciferase |  |  | HeLa | <1 µM |
| CCOC(=O)c1cccc2c(C(=O)C(=O)N3CCN(C(=O)c4ccccc4)CC3)c[nH]c12 | BRU | EC50 | RT activity |  |  | MT-2 | <10 µM |
| CCOC(=O)c1ccc(NC(=O)Nc2cccc3c(C(=O)C(=O)N4CCN(C(=O)c5ccccc5)C[C@H]4C)c[nH]c23)cc1 |  | EC50 | luciferase / reporter gene |  |  | HeLa | <1 µM |
| O=C(C(=O)N1CCN(C(=O)c2cc3ccccc3o2)CC1)c1c[nH]c2cccc(F)c12 |  | EC50 | luciferase |  |  | HeLa + HELA CD4+/CCR5 | <10 µM |
| Clc1cc(/C=C/c2ccc(N3CCCC3)cc2)nc2ccccc12 | UG070 | EC50 | luminescence |  |  | TZM-bl | 9.26 µM |
| CC(=O)Nc1cccc2c(C(=O)C(=O)N3CCN(C(=O)c4ccccc4)C[C@H]3C)c[nH]c12 |  | EC50 | luciferase / reporter gene |  |  | HeLa | <1 µM |
| CC1=C(C(=O)OCC2CCCCC2)C(c2ccccc2O)NC(=O)N1 |  | EC50 | p24 / ELISA |  |  | CEM | >5 µM |
| CCCc1cc(=O)oc2c3c(c4c(c12)OC(C)(C)CC4)O[C@H](C)[C@@H](C)C3=O | SK1 | EC50 | cytopathic effect / XTT |  |  | CEM + CEM-SS | 0.17 µM |
| Fc1ccc(/C=C/c2cc(Cl)c3ccccc3n2)cc1 | VB59 | EC50 | luminescence |  |  | TZM-bl | 50.52 µM |
| CC(=O)Oc1ccc(C(=O)N2CCN(C(=O)C(=O)c3c[nH]c4ccccc34)CC2)cc1 | BRU | EC50 | RT activity |  |  | MT-2 | <10 µM |
| Nc1ncnc2c1ncn2[C@@H]1C=C(CO)[C@@H](O)[C@H]1O | 18199 unpaired | EC50 | p24 |  |  | PBMC | 0.01 µM |
| COc1ccc(N(C)C(=O)[C@H](Cc2cc(F)cc(F)c2)NC(=O)CN2c3ccccc3N(CC(=O)N[C@@H](Cc3cc(F)cc(F)c3)C(=O)N(C)c3ccc(OC)nc3)S2(=O)=O)cn1 | NL4-3 | EC50 | luciferase |  |  | MT-2 | 0.01 µM |
| Nc1nc(=O)n([C@H]2C=C[C@@H](CO)O2)cc1F | XM-ABC-resistant | EC50 | p24 |  | RT-K65R L74V M184V Y115F | MT-4 | <14 µM |
| COc1ncc(OC)c2c(C(=O)C(=O)N3CCC(=C(C#CC(=O)O)c4ccccc4)CC3)c[nH]c12 |  | EC50 | luciferase |  |  | HeLa | <1 µM |
| C#C[C@@]1(CO)C=C[C@H](n2cc(C)c(=O)[nH]c2=O)O1 | Clinical isolate | EC50 | recombinant virus assay |  | A62V/T69ins/V75I/A98G/K103S/G190A | MT-2 | >46.2 µM |
| CCc1c(Cc2cc(C)cc(C)c2)n(COCC#Cc2ccc(N)cc2)c(=O)[nH]c1=O | IIIB | EC50 | MTT |  | K103N + Y181C | MT-4 | 2.4 µM |
| COc1ccc(N(C)C(=O)[C@H](Cc2cc(F)cc(F)c2)NC(=O)c2cc(Cl)c(Cl)cc2C(=O)N[C@@H](Cc2cc(F)cc(F)c2)C(=O)N(C)c2ccc(OC)cc2)cc1 | NL4-3 | EC50 | luciferase |  |  | MT-2 | 0.08 µM |
| COc1cc(Br)ccc1/C=C/c1cc(Cl)c2ccccc2n1 | UG070 | EC50 | luminescence |  |  | TZM-bl | 35.23 µM |
| CCc1c(Cc2cc(C)cc(C)c2)n(COCC#Cc2cccs2)c(=O)[nH]c1=O | IIIB | EC50 | MTT |  | K103N + Y181C | MT-4 | 5 µM |
| Cc1ccoc1C(=O)N1CCN(C(=O)C(=O)c2c[nH]c3cccc(F)c23)CC1 |  | EC50 | luciferase |  |  | HeLa + HELA CD4+/CCR5 | <10 µM |
| CN(C(=O)[C@H](Cc1cc(F)cc(F)c1)NC(=O)NS(=O)(=O)N[C@@H](Cc1cc(F)cc(F)c1)C(=O)N(C)c1ccc2c(cnn2C)c1)c1ccc2c(cnn2C)c1 | NL4-3 | EC50 | luciferase |  |  | MT-2 | 0.08 µM |
| O=C1Nc2ccc(Cl)cc2C(C#Cc2cncs2)(C(F)(F)F)O1 |  | EC50 |  |  |  |  | <0.00669 µM |
| Nc1nccc2c1ncn2[C@@H]1O[C@H](CO)[C@@H](O)[C@H]1O | 18199 unpaired | EC50 | p24 |  |  | PBMC | 0.908 µM |
| Cc1ccc(CN2CCN([C@H](C(=O)N[C@@H](Cc3ccccc3)[C@H](O)CN(CC(C)C)S(=O)(=O)c3ccc(/C=N/O)cc3)C(C)(C)C)C2=O)cn1 |  | EC50 | cytopathic effect / MTT | 50% human serum |  | MT-4 | 0.012 µM |
| CCN(C(=O)[C@H](Cc1cc(F)cc(F)c1)NC(=O)NS(=O)(=O)N[C@@H](Cc1cc(F)cc(F)c1)C(=O)N(CC)c1ccc2scnc2c1)c1ccc2scnc2c1 | NL4-3 | EC50 | luciferase |  |  | MT-2 | 0.06 µM |
| COc1cnc(Cl)c2[nH]cc(C(=O)C(=O)N3CCC(=C(C(N)=O)c4ccccc4)CC3)c12 |  | EC50 | luciferase |  |  | HeLa | 1–5 µM |
| Clc1ccc2nc(/C=C/c3ccc4ccccc4c3)cc(Cl)c2c1 | UG070 | EC50 | luminescence |  |  | TZM-bl | 25.98 µM |
| C=CCN(C(=O)[C@H](Cc1cc(F)cc(F)c1)NS(=O)(=O)NS(=O)(=O)N[C@@H](Cc1cc(F)cc(F)c1)C(=O)N(CC=C)c1ccc(OC)cc1)c1ccc(OC)cc1 | NL4-3 | EC50 | luciferase |  |  | MT-2 | 2.56 µM |
| O=C1Nc2ccc(F)c(F)c2C(C#Cc2ccco2)(C(F)(F)F)O1 |  | EC50 |  |  | RT-K103N |  | <0.0593 µM |
| CCC(C)[C@@H](C(=O)N[C@@H](Cc1ccccc1)[C@H](O)CN(CC1CCCC1)S(=O)(=O)c1ccc(/C=N/O)cc1)N1CCN(Cc2cccc(COC)n2)C1=O |  | EC50 | cytopathic effect / MTT | 50% human serum |  | MT-4 | 0.026 µM |
| CCN(C(=O)[C@H](Cc1cc(F)cc(F)c1)NC(=O)CN1c2ccccc2N(CC(=O)N[C@@H](Cc2cc(F)cc(F)c2)C(=O)N(CC)c2ccc(OC(F)F)cc2)S1(=O)=O)c1ccc(OC(F)F)cc1 | NL4-3 | EC50 | luciferase |  |  | MT-2 | 0.09 µM |
| Nc1nc(NC2CC2)c2ncn([C@H]3C=C[C@@H](CO)C3)c2n1 | Clinical isolate | EC50 | recombinant virus assay |  | K103N/M184V | MT-2 | 0.264 µM |
| CNC(C(=O)Nc1cccc2c(C(=O)C(=O)N3CCN(C(=O)c4ccccc4)C[C@H]3C)c[nH]c12)C(O)C(=O)O |  | EC50 | luciferase / reporter gene |  |  | HeLa | <1 µM |
| CC(C)=CCOc1cc(NC(=S)c2ccoc2C)ccc1Cl | RF | EC50 | p24 |  |  | CEM + CEM-SS | 0.02 µM |
| CCC1=C(C(=O)OCC2CCCCC2)C(c2ccc(O)c(F)c2)NC(=O)N1 |  | EC50 | p24 / ELISA |  |  | CEM | ≤1 µM |
| COc1cnc(-c2ccc(S(C)(=O)=O)cc2)c2[nH]cc(C(=O)C(=O)N3CCC(=C(C#N)c4ccccn4)CC3)c12 |  | EC50 | luciferase |  |  | HeLa | <1 µM |
| CCc1c(Cc2ccccc2C)n(COCC#Cc2ccc(NC(=O)C(F)(F)F)cc2)c(=O)[nH]c1=O | IIIB | EC50 | MTT |  | WT | MT-4 | 0.09 µM |
| Nc1nc(NC2CC2)c2ncn([C@H]3C=C[C@@H](CO)C3)c2n1 | XM-Q151M | EC90 | p24 |  | RT-A62V V75I F77C F116Y Q151M | PBMC | 3.1 µM |
| CCC1=C(C(=O)OCC2CCCCC2)C(c2ccc(OC(=O)C(C)(C)C)c(Cl)c2)NC(=O)N1 |  | EC50 | p24 / ELISA |  |  | CEM | ≤1 µM |
| CCc1c(Cc2ccccc2C)n(COCC#Cc2ccc(NC(=O)CBr)cc2)c(=O)[nH]c1=O | IIIB | EC50 | MTT |  | K103N + Y181C | MT-4 | >41 µM |

The first 7 rows once more:

structure,strain or isolate,read-out,read by,setting,changes,cells,value
C=CCN(C(=O)[C@H](Cc1cc(F)cc(F)c1)NC(=O)c1ccncc1C(=O)N[C@@H](Cc1cc(F)cc(F)c1)C(=O)N(CC=C)c1ccc(OC)cc1)c1ccc(OC)cc1,NL4-3,EC50,luciferase,,,MT-2,3.92 µM
CC(=O)Nc1ccc(F)c2c(C(=O)C(=O)N3CCC(=C(C#N)c4ccncc4)CC3)c[nH]c12,,EC50,luciferase / reporter gene,,,HeLa,<1 µM
Nc1ccn([C@H]2CC[C@@H](CO)O2)c(=O)n1,NL4-3,EC50,β-galactosidase,,S241F,,0.42 µM
CCc1c(Cc2cc(C)cc(C)c2)n(COCC#Cc2ccc(NC(=O)C(F)(F)F)cc2)c(=O)[nH]c1=O,IIIB,EC50,MTT,,EFV-resistant (K103R V179D P225H),MT-4,9 µM
CCC(C)[C@@H](C(=O)N[C@@H](Cc1ccccc1)[C@H](O)CN(CC(C)C)S(=O)(=O)c1ccc(/C=N/O)cc1)N1CCN(Cc2cccnc2C)C1=O,,EC50,cytopathic effect / MTT,,,MT-4,0.002 µM
COc1cnc(-n2cncn2)c2[nH]cc(C(=O)C(=O)N3CCC(=C(c4ccccc4)c4nnc(C)o4)CC3)c12,,EC50,luciferase,,,HeLa,<1 µM
O=C1Nc2ccc(Cl)cc2C(OCCC2CC2)(C(F)(F)F)O1,,EC50,,,,,<0.00804 µM